Measured values from several laboratories, pooled; numbers as filed in NIAID ChemDB.

Shared fields: host cell toxicity; cells: MT-4; endpoint: CC50

Blank or dashed fields: not listed here. Rows are shuffled and stem from different studies. CCn: concentration that lowers growth or viability of the cells by n%.

structure,read by,value
Cc1ccccc1N1CCN(CCCN2C(=O)C3C4CCC(C(=O)C4)C3C2=O)CC1,MTT,>100 µM
N#Cc1cc(Cl)cc(Oc2cc(OCc3cn(-c4ccccc4)nn3)ccc2Cl)c1,microscopy,>20 µM
CC(C)C(NC(=S)NC(=O)CCCN1C(=O)c2ccccc2C1=O)C(=O)O,MTT,26.73 µM
COc1c(Cl)cc(C(=CCCCCN[C@H]2CC[C@]3(C)C4CC[C@@]5(C)C(CC[C@@H]5C(C)CCCC(C)C)C4CC[C@H]3C2)c2cc(Cl)c(OC)c(C(=O)O)c2)cc1C(=O)O,-,>150 µM
Cc1cc(C)cc(S(=O)(=O)c2c(C(=O)N[C@H]3CCN(CC(N)=O)C3)[nH]c3ccc(Cl)cc23)c1,MTT,28.07 µM
O=S1(=O)N=C(Nc2cccc(Cl)c2)C=C(Cc2cccc3ccccc23)N1,MTT,161 µM
Cc1cn([C@H]2C=C[C@@H](CO)O2)c(=O)[nH]c1=O,-,>600 µM
CC1=C[C@@H]2[C@@H]3C(=O)N(NC(=S)NC4CCCCC4)C(=O)[C@@H]3[C@H]1C[C@@H]2C(C)C,MTT,47 µM
NS(=O)(=O)c1ccc(NC(=O)COc2cc(Cl)cc(Oc3ccccc3)c2)c(Cl)c1,microscopy,>20 µM
C#CCOCn1c(Cc2ccccc2)c(CO)c(=O)[nH]c1=O,MTT,>100 µM
O=S1(=O)N=C(Nc2ccc(F)c(F)c2)C=C(Cc2ccc3ccccc3c2)N1,MTT,156 µM
Cc1cc(C)cc(S(=O)(=O)c2c(C(=O)NC3CN(S(C)(=O)=O)C3)[nH]c3ccc(Cl)cc23)c1,MTT,>252 µM
CCN(CC)CCOc1ccc(NC(=O)COc2ccccc2C(=O)c2ccc(F)cc2)cc1,-,>0.862 µM
O=C(NCCCCCCN1CCCC2=C[C@@H]3C[C@@H](CN4CCCC[C@H]34)[C@@H]21)c1ccc(Br)c(C(F)(F)F)c1,luminescence,>20 µM
CC(C)(C)NCC(O)CN1C(=O)C2C3CCC(C(=O)C3)C2C1=O,MTT,>100 µM
CCN(C(=O)C(=O)N(C)C)C1CN(C)CCn2c1nc(C(=O)NCc1ccc(F)c(C)c1)c(O)c2=O,microscopy,>1 µM
CC(C)[C@]12C=C[C@](C)(CC1)[C@H]1C(=O)N(NC(=S)Nc3ccccc3)C(=O)[C@H]12,MTT,60 µM
Cc1nc2c(c(C)c(C)n2CC2C(=O)c3ccccc3C2=O)c(-c2ccc(Cl)cc2)c1C(OC(C)(C)C)C(=O)O,MTT,>179 µM
COc1c(Cl)cc(C(=CCNC(=O)C[C@H]2CC[C@]3(C)C4CC[C@@]5(C)C(CC[C@@H]5CC(=O)NCC=C(c5cc(Cl)c(OC)c(C(=O)O)c5)c5cc(Cl)c(OC)c(C(=O)O)c5)C4CC[C@H]3C2)c2cc(Cl)c(OC)c(C(=O)O)c2)cc1C(=O)O,-,>125 µM
CCCOC(=O)[C@H](Cc1ccccc1)NP(=O)(CO[C@H]1CO[C@@H](n2cc(F)c(=O)[nH]c2=O)C1)N[C@@H](Cc1ccccc1)C(=O)OCCC,MTT / absorbance,>64 µM
Cc1nc2c(c(C)c(C)n2Cc2cocn2)c(-c2ccc(Cl)cc2)c1[C@H](OC(C)(C)C)C(=O)O,MTT,64.73 µM
O=C1CC2CCC1C1C(=O)N(CCCCN3CCN(c4ccccn4)CC3)C(=O)C21,MTT,>100 µM
N#Cc1cc(Cl)cc(Oc2cc(OCc3nc(-c4ccccc4)no3)ccc2Cl)c1,microscopy,>20 µM
CN(C)CCN1CCn2c(nc(C(=O)NCc3ccc(F)cc3)c(O)c2=O)C1(C)C,microscopy,>1 µM
Cc1cc(C)cc(S(=O)(=O)c2c(C(=O)NS(=O)(=O)c3ccc(F)cc3F)[nH]c3ccc(Cl)cc23)c1,MTT,167 µM
CN(CC1c2nc(C(=O)NCc3ccc(F)cc3)c(O)c(=O)n2CCN1C)C(=O)c1ccccn1,microscopy,>10 µM
Cc1cn([C@H]2C[C@H](N=[N+]=[N-])[C@@H](CO)O2)c(=O)[nH]c1=O,MTT / absorbance,>7.48 µM
Cc1cn([C@@H]2O[C@H](CO)[C@@H](F)[C@H]2O)c(=O)[nH]c1=O,-,>500 µM
N#Cc1cc(C#N)cc(Oc2cc(Cl)cc(OCC(=O)Nc3ccc(S(N)(=O)=O)cc3Cl)c2)c1,microscopy,>20 µM
O=C1CC2CCC1C1C(=O)N(CCCCN3CCN(c4ccc(F)cc4)CC3)C(=O)C21,MTT,>100 µM
CC(C)[C@]12C=C[C@](C)(CC1)[C@H]1C(=O)N(NC(=O)Nc3ccccc3)C(=O)[C@H]12,MTT,100 µM
O=C(NCCN1CCCC2=C[C@@H]3C[C@@H](CN4CCCC[C@H]34)[C@@H]21)c1ccc(OC(F)(F)F)cc1,luminescence,>25 µM
Cc1cc(C)cc(S(=O)(=O)c2c(C(=O)N[C@H]3CCN(Cc4ccccc4C#N)C3)[nH]c3ccc(Cl)cc23)c1,MTT,>229 µM
CSCCC(NC(=S)NC(=O)CCCN1C(=O)c2ccccc2C1=O)C(=O)O,MTT,78.22 µM
O=C(/C=C/C(F)(F)F)NCCCCN1CCCC2=C[C@@H]3C[C@@H](CN4CCCC[C@H]34)[C@@H]21,luminescence,>20 µM
N#Cc1cc(Cl)cc(Oc2cc(OCc3[nH]nc4ncccc34)ccc2Cl)c1,microscopy,>20 µM
O=C1CC2CCC1C1C(=O)N(CC(O)CN3CCN(c4ccccc4)CC3)C(=O)C21,MTT,>100 µM
N#Cc1cc(Cl)cc(Oc2cc(CCc3[nH]nc4ncccc34)ccc2Cl)c1,microscopy,>20 µM
CC1=C(C)[C@]2(C)C(C)[C@@]1(C)[C@@H]1C(=O)N(NC(=O)Nc3ccccc3)C(=O)[C@@H]12,MTT,>42 µM
CCOCn1c(CC2CCCc3ccccc32)c(CC)c(=O)[nH]c1=O,MTT,96 µM
COC(=O)C(CCSC)NC(=O)CCCN1C(=O)c2ccccc2C1=O,MTT,18.85 µM
O=C(NCc1ccc(F)cc1)c1nc2n(c(=O)c1O)CCN(Cc1ccccc1)C2,microscopy,>1 µM
CC1=C[C@@H]2[C@@H]3C(=O)N(NC(=S)Nc4ccccc4)C(=O)[C@@H]3[C@H]1C[C@@H]2C(C)C,MTT,48 µM
O=C(NCCCCCCN1CCC[C@H]2C[C@@H]3C[C@@H](CN4CCCC[C@H]34)[C@@H]21)c1ccc(OC(F)(F)F)cc1,luminescence,>20 µM
[N-]=[N+]=N[C@@H]1C[C@@H](CO)O[C@H]1n1cnc2c(N)ncnc21,-,625 µM
C[C@]12CCC3C(CC[C@H]4C[C@@H](CC=C(c5cc(Cl)c(O)c(C(=O)O)c5)c5cc(Cl)c(O)c(C(=O)O)c5)CC[C@]34C)C1CC[C@@H]2CC=C(c1cc(Cl)c(O)c(C(=O)O)c1)c1cc(Cl)c(O)c(C(=O)O)c1,-,115 µM
O=c1[nH]c(=O)n([C@@H]2C[C@H](O)[C@@H](CO)S2)cc1/C=C/Br,-,>500 µM
O=C(Cc1ccc2c(c1)OC(F)(F)O2)NCCCCN1CCCC2=C[C@@H]3C[C@@H](CN4CCCC[C@H]34)[C@@H]21,luminescence,>20 µM
CC(C)CN(C[C@@H](O)[C@H](Cc1ccccc1)NC(=O)O[C@H]1CO[C@H]2OCC[C@H]21)S(=O)(=O)c1ccc2c(c1)/C(=C/c1ccc(N(C)C)cc1)C(=O)N2,-,100 µM
Cc1cc(C)cc(S(=O)(=O)c2c(C(=O)N[C@H]3CCN(S(C)(=O)=O)C3)[nH]c3ccc(Cl)cc23)c1,MTT,29.92 µM
Cc1ccc(CN=C2C=C(Cc3ccccc3)NS(=O)(=O)N2)cc1,MTT,192 µM
CCc1c(Cc2cc(C)cc(C)c2)n(COCCO)c(=O)[nH]c1=O,MTT,>100 µM
O=c1[nH]c(=O)n([C@H]2C[C@H](O)[C@@H](CO)S2)cc1/C=C/Br,-,>500 µM
CC1(C)c2nc(C(=O)NCc3ccc(F)cc3)c(O)c(=O)n2CCN1S(C)(=O)=O,microscopy,>1 µM
O=C(CCCN1C(=O)c2ccccc2C1=O)NC(=S)NC(Cc1ncc[nH]1)C(=O)O,MTT,47.26 µM
CCCCCCC(C)[C@H]1CCC2C3CC[C@H]4C[C@@H](CCC=C(c5cc(Cl)c(O)c(C(=O)O)c5)c5cc(Cl)c(O)c(C(=O)O)c5)CC[C@]4(C)C3CC[C@@]21C,-,>125 µM
CCc1c(Cc2cc(C)cc(C)c2)n(Cc2ccc(C#CCO)cc2)c(=O)[nH]c1=O,MTT,2 µM
C=C(C)COCn1c(CC2CCCc3ccccc32)c(CC)c(=O)[nH]c1=O,MTT,40 µM
Nc1ncnc2c1ccn2/C=C/[C@H](CO)OCP(=O)(O)O,MTT / absorbance,>398 µM
C=CCOCn1c(Cc2ccccc2)c(CF)c(=O)[nH]c1=O,MTT,>100 µM
O=C1CC2CCC1C1C(=O)N(CCCN3CCN(c4ccccc4)CC3)C(=O)C21,MTT,>100 µM
N#Cc1cc(Cl)cc(Oc2cc(OCc3[nH]nc4nc(N5CC(CN)C5)ccc34)ccc2Cl)c1,microscopy,>20 µM
CN(C)CC(O)CN1C(=O)C2C3CCC(C(=O)C3)C2C1=O,MTT,>100 µM
O=C(NCCCCN1CCCC2=C[C@@H]3C[C@@H](CN4CCCC[C@H]34)[C@@H]21)C1(c2ccc(OC(F)(F)F)cc2)CC1,luminescence,>20 µM
Cc1cn([C@H]2C[C@@H](OCP(=O)(O)O)CO2)c(=O)nc1N,MTT / absorbance,>410 µM
Cc1cc(C)c(NC2=NS(=O)(=O)NC(Cc3ccc4ccccc4c3)=C2)c(C)c1,MTT,96 µM
CC1=C[C@@H]2[C@@H]3C(=O)N(NC(=O)NC4CCCCC4)C(=O)[C@@H]3[C@H]1C[C@@H]2C(C)C,MTT,63 µM
Cc1nc2c(c(C)c(C)n2Cc2ccncc2)c(-c2ccc(Cl)cc2)c1C(OC(C)(C)C)C(=O)O,MTT,>203 µM
O=c1ccn([C@@H]2O[C@H](CO)[C@@H](F)[C@H]2O)c(=O)[nH]1,-,38 µM

Again, the opening 8 rows:

structure	read by	value
Cc1ccccc1N1CCN(CCCN2C(=O)C3C4CCC(C(=O)C4)C3C2=O)CC1	MTT	>100 µM
N#Cc1cc(Cl)cc(Oc2cc(OCc3cn(-c4ccccc4)nn3)ccc2Cl)c1	microscopy	>20 µM
CC(C)C(NC(=S)NC(=O)CCCN1C(=O)c2ccccc2C1=O)C(=O)O	MTT	26.73 µM
COc1c(Cl)cc(C(=CCCCCN[C@H]2CC[C@]3(C)C4CC[C@@]5(C)C(CC[C@@H]5C(C)CCCC(C)C)C4CC[C@H]3C2)c2cc(Cl)c(OC)c(C(=O)O)c2)cc1C(=O)O	-	>150 µM
Cc1cc(C)cc(S(=O)(=O)c2c(C(=O)N[C@H]3CCN(CC(N)=O)C3)[nH]c3ccc(Cl)cc23)c1	MTT	28.07 µM
O=S1(=O)N=C(Nc2cccc(Cl)c2)C=C(Cc2cccc3ccccc23)N1	MTT	161 µM
Cc1cn([C@H]2C=C[C@@H](CO)O2)c(=O)[nH]c1=O	-	>600 µM
CC1=C[C@@H]2[C@@H]3C(=O)N(NC(=S)NC4CCCCC4)C(=O)[C@@H]3[C@H]1C[C@@H]2C(C)C	MTT	47 µM